Data: article PMC7157558, “The B Subunit of PirAB^vp Toxin Secreted from Vibrio parahaemolyticus Causing AHPND Is an Amino Sugar Specific Lectin” (2020)

Columns and labels:
[1] = molecular target: T1, PirAB^vp toxin complex (wild-type) (Vibrio parahaemolyticus, UniProt A0A085YLC1); experiment: affinity chromatography on alpha-galactose-Sepharose, elution with […] galactose; settings: phosphate buffer with 150 mM NaCl, pH 7.4; immobilised ligand
rPirB^vp = rPirB^vp (Vibrio parahaemolyticus, UniProt A0A085YLC1); experiment: inhibition of rat erythrocyte hemagglutination; settings: PBS pH 7.4, room temperature, 2% Wistar rat erythrocytes
[2] = molecular target: T1, PirAB^vp toxin complex (wild-type); experiment: inhibition of rat erythrocyte hemagglutination; settings: PBS pH 7.4

Compound | affinity chromatography on alpha-galactose-Sepharose, elution with 200 mM galact [1] | Concentration (mM) ^a (rPirB^vp) | inhibition of rat erythrocyte hemagglutination [2]
OC[C@H]1OC(O)[C@H](O)[C@@H](O)[C@H]1O (stereo partly drawn) | identified and purified in a single step by affinity chromatography |  | 
N=C(N)NCCC[C@H](N)C(=O)O |  | 25 mM | 
OC[C@H]1O[C@@H](O[C@H]2[C@H](O)[C@@H](O)C(O)O[C@@H]2CO)[C@H](O)[C@@H](O)[C@H]1O (stereo partly drawn) |  | 100 mM | 
OC[C@H]1O[C@H](O[C@H]2[C@H](O)[C@@H](O)C(O)O[C@@H]2CO)[C@H](O)[C@@H](O)[C@@H]1O (stereo partly drawn) |  | 100 mM | 
N[C@@H](CSSC[C@H](N)C(=O)O)C(=O)O |  | 25 mM | 
N[C@H]1C(O)O[C@H](CO)[C@@H](O)[C@@H]1O (stereo partly drawn) |  | 25 mM | only GalNH2 and GlcNH2 were able to inhibit hemagglutination of the PirAB^vp complex
N[C@H]1C(O)O[C@H](CO)[C@H](O)[C@@H]1O (stereo partly drawn) |  | 25 mM | only GalNH2 and GlcNH2 were able to inhibit hemagglutination of the PirAB^vp complex
